This note sets out measurements from patent EP4847047A1, “CONJUGATE, PREPARATION METHOD THEREFOR, AND USE THEREOF” (dated 2026).

Molecules are shown by their SMILES.

Assay [1] has as its system A/Shanghai/02/2013(H7N9). The assay is described as follows: In vitro anti-influenza virus activity (CPE inhibition) in infected MDCK cells.
In assay [2] the test system is influenza virus (A/California/07/2009). Put plainly: In vivo anti-influenza virus activity in severe influenza DBA/2 mouse model. The note with it: DBA/2 mice, 1×10^4 PFU; zanamivir 5 mg/kg i.v. once daily, oseltamivir phosphate 20 mg/kg oral twice daily, 5 consecutive days.
The subject of assay [3] is A/Puerto Rico/8/1934(H1N1-PR8). Put plainly: In vitro anti-influenza virus activity (CPE inhibition) in infected MDCK cells.
In assay [4] the test system is A/Victoria/2570/2019(H1N1). Described as above.
In assay [5] the test system is A/Darwin/9/2021(H3N2). Described as above.
Assay [6] has as its system B/Austria/1359417/2021(BV). The description is as above.
Assay [7] deals with A/Vietnam/2004(H5N1). Described as above.

For orientation: EC50 means the concentration at which the effect is half-maximal. In turn, `CC(=O)N[C@H]1[C@H]([C@H](O)[C@H](O)CO)OC(C(=O)O)=C[C@@H]1N=C(N)N` yielded an EC50 in assay [1] of 55.6 nM. For the same compound, the “survival of mice receiving positive control drugs” value in assay [2] is given as “died”.

On to `COC(=O)OCOc1c2n(ccc1=O)N([C@@H]1c3ccccc3SCc3c1ccc(F)c3F)[C@@H]1COCCN1C2=O`, for which the concentration for a half-maximal effect (EC50) in assay [3] turned out to be 0.611 nM; in assay [4], 1.05 nM; in assay [5], 0.772 nM; in assay [6] it was 1.53 nM.

As for `CCOC(=O)C1=C[C@@H](OC(CC)CC)[C@H](NC(C)=O)[C@@H](N)C1`, the half-maximal effective concentration (EC50) in assay [3] was 8590 nM; in assay [7] it was 267 nM; in assay [4] it was 465 nM; in assay [1] it was 100 nM; in assay [5], 9.02 nM; in assay [6], 1140 nM.
